A mixed list of measured activities; the numbers were collected in NIAID ChemDB.

Shared fields: tests in culture; species: Herpes simplex virus 1

ECn is the concentration giving n% inhibition of infection, replication or growth. Neighbouring rows are from separate reports. Blank or dashed fields: not listed here.

| smiles | read by | strain or isolate | cell line | measure | value |
|---|---|---|---|---|---|
| Nc1nc2c(ncn2CC(CO)OCP(=O)(O)O)c(=O)[nH]1 |  |  | Primary rabbit kidney cells | EC50 | 7 µg/mL |
| Nc1ncnc2c1ccn2[C@@H]1O[C@H](CO)[C@@H](O)[C@@H]1O | plaque count |  | HFF | EC50 | 320 µM |
| O=C(O)CP(=O)(O)O | cytopathic effect | TK- | VERO | EC50 | >71.4 µM |
| Nc1nc2c(ncn2COC(CO)CO)c(=O)[nH]1 | cytopathic effect | KOS BVDU-resistant | HEL | EC50 | 0.76 µg/mL |
| CCN1C[C@]2(COC)[C@H](O)CC(OC)[C@]34C1[C@H](CC23OC)[C@]1(OC(C)=O)[C@H]2[C@@H](OC(=O)c3ccccc3)[C@](O)(C[C@H]24)[C@@H](OC)[C@@H]1O | cytopathic effect | KOS | HeLa | EC50 | >100 µg/mL |
| O=C(O)CP(=O)(O)O | cytopathic effect | KOS | HEL | EC50 | 16 µg/mL |
| CCCNC(=O)Nc1ccccc1[Se][Se]c1ccccc1NC(=O)NCCC |  |  |  | MIC | >1000 µg/mL |
| COc1ccc2c(c1)COP(=O)(OC[C@H]1O[C@@H](n3cc(/C=C/Br)c(=O)[nH]c3=O)C[C@@H]1O)O2 | plaque count | KUPKA (TK+) | VERO | EC50 | 0.36 µg/mL |
| C=CCCCCCCCCC(=O)O | cytopathic effect | KOS | HeLa | EC50 | >200 µg/mL |
| COc1ccc(-c2cc(=O)c3c(O)cc(O)cc3o2)cc1 |  | TK- | VERO | EC50 | >20 µg/mL |
| Cc1cccc2c1OP(=O)(OC[C@H]1O[C@@H](n3cc(/C=C/Br)c(=O)[nH]c3=O)C[C@@H]1OC(=O)[C@@H](N)C(C)C)OC2 | plaque count | B2006 (TK-) | VERO | EC50 | >128 µg/mL |
| CC(=O)NS(=O)(=O)c1ccc(NC(=O)CCC[Se][Se]CCCC(=O)Nc2ccc(S(=O)(=O)NC(C)=O)cc2)cc1 |  |  |  | MIC | >1000 µg/mL |
| O=C(O)CP(=O)(O)O | cytopathic effect | KOS PMEA-resistant | HEL | EC50 | 70.5 µg/mL |
| COC(=O)CN(CC(=O)OC)P(=O)(OC[C@H]1O[C@@H](n2cnc3c(N)ccnc32)C[C@@H]1O)Oc1ccccc1 |  | KOS | HEL | EC50 | >100 µM |
| O=c1[nH]cnc2c1ncn2CCOCP(=O)(O)O |  | TK- | Primary rabbit kidney cells | EC50 | >400 µg/mL |
| Nc1ncnc2c1ncn2CCOCP(=O)(O)O | virus yield | PFA-resistant-2 | HeLa | EC90 | >1000 µM |
| Nc1nc(=O)n([C@@H]2O[C@H](CO)[C@@H](O)[C@@H]2F)cc1I | cytopathic effect | KOS HPMPC-resistant | HEL | EC50 | 0.023 µg/mL |
| CC(=O)O[C@H]1C[C@H](n2cc(/C=C/Br)c(=O)[nH]c2=O)O[C@@H]1COP1(=O)OCc2cccc(C)c2O1 | plaque count | B2006 (TK-) | VERO | EC50 | >128 µg/mL |
| Nc1nc(N)c2ncn(CCOCP(=O)(O)O)c2n1 | cytopathic effect | PCV-resistant/B | HEL | EC50 | 3.3 µg/mL |
| Nc1ncnc2c1ncn2C[C@@H](CO)OCP(=O)(O)O | cytopathic effect | B2006 (TK-) |  | EC50 | 0.4 µg/mL |
| CC[C@]12CCCN3CCc4c(n(c5ccccc45)[C@@](O)(C(=O)OC)C1)[C@@H]32 | cytopathic effect | KOS | HeLa | EC50 | >200 µg/mL |
| Cc1cccc2c1OP(=O)(OC[C@H]1O[C@@H](n3cc(/C=C/Br)c(=O)[nH]c3=O)C[C@@H]1OC(=O)[C@@H]1CCCN1)OC2 | plaque count | KUPKA (TK+) | VERO | EC50 | 0.44 µg/mL |
| CC(C)(C)C(=O)OCOC(=O)CN(CC(=O)OCOC(=O)C(C)(C)C)P(=O)(OC[C@H]1O[C@@H](n2cnc3c(Cl)nccc32)C[C@@H]1O)Oc1ccccc1 |  | KOS | HEL | EC50 | >20 µM |
| Nc1ncnc2c1ncn2C[C@@H](CO)OCP(=O)(O)O | cytopathic effect | PCV-resistant/B | HEL | EC50 | 0.07 µg/mL |
| Nc1ncnc2c1ccn2[C@H]1C[C@@H](O)[C@@H](CO)O1 | cytopathic effect | KOS | PRK | EC50 | 70 µg/mL |
| O=c1[nH]cnc2c1ncn2C[C@@H](CO)OCP(=O)(O)O |  | TK- | Primary rabbit kidney cells | EC50 | >400 µg/mL |
| CCOC(=O)P(=O)(OC)OC[C@H]1O[C@@H](n2cc(CCCl)c(=O)[nH]c2=O)C[C@@H]1O | cytopathic effect | BRAND | VERO | EC50 | >0.7 µM |
| Nc1ncnc2c1ncn2[C@@H]1O[C@H](CO)C[C@@H]1O | cytopathic effect | KOS | HEL | EC50 | 11.9 µg/mL |
| Cc1cccc2c1OP(=O)(OC[C@H]1O[C@@H](n3cc(/C=C/Br)c(=O)[nH]c3=O)C[C@@H]1OC(=O)[C@H](N)CC(C)C)OC2 | plaque count | KUPKA (TK+) | VERO | EC50 | 0.32 µg/mL |
| Nc1ncnc2c1ccn2[C@@H]1O[C@H](CO)[C@H](O)[C@H]1O | cytopathic effect | McIntyre | PRK | EC50 | 0.2 µg/mL |
| Cc1cc(-c2ccc(N=Nc3c(S(=O)(=O)O)cc4cc(S(=O)(=O)O)cc(N)c4c3O)c(C)c2)ccc1N=Nc1c(S(=O)(=O)O)cc2cc(S(=O)(=O)O)cc(N)c2c1O | cytopathic effect | KOS | HeLa | EC50 | 15 µM |
| Nc1ncnc2c1ncn2C[C@@H](CO)OCP(=O)(O)O |  |  | Primary rabbit kidney cells | EC50 | 2 µg/mL |
| CCOC(=O)P(=O)(OCCOCn1cnc2c(=O)[nH]c(N)nc21)OC(C)C | cytopathic effect | AVD | VERO | EC50 | 0.77 µM |
| O=C1c2cccc(O)c2C(=O)c2c(O)cccc21 | cytopathic effect | KOS | HeLa | EC50 | >200 µg/mL |
| O=C(O)P(=O)(O)O | cytopathic effect | PCV-resistant/B | HEL | EC50 | 20 µg/mL |
| Nc1nccc2c1ncn2[C@@H]1C[C@H](CO)[C@@H](O)[C@H]1O | cytopathic effect | B2006 (TK-) | PRK | EC50 | 150 µg/mL |
| CCCNC(=S)Nc1ccccc1[Se][Se]c1ccccc1NC(=S)NCCC |  |  |  | MIC | >1000 µg/mL |
| O=c1[nH]c(=O)n(C2CC(O)C(CO)O2)cc1/C=C/Br |  | KOS | HEL | EC50 | 0.1 µM |
| CN[C@@H]1C[C@H](N)[C@@H](O)[C@H](O[C@@H]2O[C@H](CO)[C@H](O)[C@@H]3OC4(O[C@H]23)O[C@H]([C@@H](N)CO)[C@H](O)[C@H](O)[C@H]4O)[C@H]1O | cytopathic effect | KOS | HeLa | EC50 | >100 µM |
| NC(=O)c1cn([C@@H]2O[C@H](CO)[C@H](O)[C@H]2O)c2ncnc(N)c12 | plaque count |  | HFF | EC50 | 10 µM |
| Nc1ncnc2c1ncn2CCOCP(=O)(O)O |  |  | Primary rabbit kidney cells | EC50 | 7 µg/mL |
| Cc1cccc2c1OP(=O)(OC[C@H]1O[C@@H](n3cc(/C=C/Br)c(=O)[nH]c3=O)C[C@@H]1OC(=O)[C@@H](C)N)OC2 | plaque count | B2006 (TK-) | VERO | EC50 | >128 µg/mL |
| O=[N+]([O-])c1ncc[nH]1 | cytopathic effect | KOS | HeLa | EC50 | >200 µg/mL |
| O=c1[nH]c(=O)n([C@H]2C[C@H](O)[C@@H](CO)O2)cc1I | cytopathic effect | BRAND | VERO | EC50 | >0.3 µM |
| Cc1cn([C@@H]2O[C@H](CO)[C@@H](O)[C@@H]2O)c(=O)[nH]c1=O | cytopathic effect | KOS HPMPA-resistant | HEL | EC50 | 0.076 µg/mL |
| Nc1nc2c(ncn2COC(CO)CO)c(=O)[nH]1 |  | KOS | HEL | EC50 | 0.02 µM |
| Nc1ccn(C[C@@H](CO)OCP(=O)(O)O)c(=O)n1 | cytopathic effect | KOS PFA-resistant | HEL | EC50 | 0.56 µg/mL |
| Nc1ncnc2c1ccn2[C@@H]1O[C@H](CO)[C@@H](O)[C@H]1O | cytopathic effect | KOS | PRK | EC50 | 0.1 µg/mL |
| Nc1ncnc2c1ncn2C[C@@H](CO)OCP(=O)(O)O | virus yield | KOS | HeLa | EC90 | 50 µM |
| C[C@H](CCC(=O)NCCS(=O)(=O)O)[C@H]1CC[C@H]2[C@@H]3[C@H](O)C[C@@H]4C[C@H](O)CC[C@]4(C)[C@H]3C[C@H](O)[C@]12C | cytopathic effect | KOS | HeLa | EC50 | >200 µg/mL |
| C[C@H](N)C(=O)O[C@H]1C[C@H](n2cc(/C=C/Br)c(=O)[nH]c2=O)O[C@@H]1COP1(=O)OCc2ccccc2O1 | plaque count | KUPKA (TK+) | VERO | EC50 | 0.18 µg/mL |
| N#Cc1cn([C@@H]2O[C@H](CO)[C@H](O)[C@H]2O)c2ncnc(N)c12 | plaque count |  | HFF | EC50 | 0.5 µM |
| NS(=O)(=O)c1ccc(NC(=O)CCC[Se][Se]CCCC(=O)Nc2ccc(S(N)(=O)=O)cc2)cc1 |  |  |  | MIC | >1000 µg/mL |
| Cc1cccc2c1OP(=O)(OC[C@H]1O[C@@H](n3cc(/C=C/Br)c(=O)[nH]c3=O)C[C@@H]1OC(=O)[C@H](N)Cc1ccccc1)OC2 | plaque count | B2006 (TK-) | VERO | EC50 | >128 µg/mL |
| O=c1c(O)c(-c2ccccc2)oc2cc(O)cc(O)c12 |  | TK- | VERO | EC50 | >15 µg/mL |
| CCC1OC(=O)CC(O)C(C)C(OC2CC(N(C)C)C(OC3CC(C)(O)C(O)C(C)O3)C(C)O2)C(CC=O)CC(C)C(=O)/C=C/C2(C)OC2C1COC1OC(C)C(O)C(OC)C1OC | cytopathic effect | KOS | HeLa | EC50 | >100 µg/mL |
| Cc1cccc2c1OP(=O)(OC[C@H]1O[C@@H](n3cc(/C=C/Br)c(=O)[nH]c3=O)C[C@@H]1OC(=O)[C@H]1CCCN1)OC2 | plaque count | KUPKA (TK+) | VERO | EC50 | 0.23 µg/mL |
| NC(=O)c1cn(COC(CO)CO)c2ncnc(N)c12 | plaque count |  | HFF | EC50 | >100 µM |
| O=C(CP(=O)(O)O)OC[C@H]1O[C@@H](n2cc(CCCl)c(=O)[nH]c2=O)C[C@@H]1O | cytopathic effect | TK- | VERO | EC50 | >72.7 µM |
| N#Cc1cn(COC(CO)CO)c2ncnc(N)c12 | plaque count |  | HFF | EC50 | >100 µM |
| Nc1ncnc2c1ncn2CCOCP(=O)(O)O | cytopathic effect | KOS ACV-resistant | HEL | EC50 | 15.8 µg/mL |
| Nc1nc(N)c2ncn(CC(CO)OCP(=O)(O)O)c2n1 |  |  | Primary rabbit kidney cells | EC50 | 10 µg/mL |

4 of the rows above, restated:

{"smiles": "O=C(O)CP(=O)(O)O", "read by": "cytopathic effect", "strain or isolate": "KOS PMEA-resistant", "cell line": "HEL", "measure": "EC50", "value": "70.5 µg/mL"}
{"smiles": "N#Cc1cn(COC(CO)CO)c2ncnc(N)c12", "read by": "plaque count", "cell line": "HFF", "measure": "EC50", "value": ">100 µM"}
{"smiles": "CCCNC(=S)Nc1ccccc1[Se][Se]c1ccccc1NC(=S)NCCC", "measure": "MIC", "value": ">1000 µg/mL"}
{"smiles": "O=[N+]([O-])c1ncc[nH]1", "read by": "cytopathic effect", "strain or isolate": "KOS", "cell line": "HeLa", "measure": "EC50", "value": ">200 µg/mL"}